Results of unrelated studies side by side (data: NIAID ChemDB).

Common to all: cytotoxicity tests; cells: PBMC; measure: CC50

CCn is the concentration with n% toxicity to the cells.

compound,method,result
O=C(O)c1cc(-n2cccc2)ccc1Cl,trypan blue,>500 µg/mL
Cc1cn([C@H]2C[C@H](N=[N+]=[N-])[C@@H](CO)O2)c(=O)[nH]c1=O,MTT,>100 µM
Cc1cc(C)cc(Cn2c(=S)ccn(Cc3ccccc3)c2=O)c1,-,>371 µM
Nc1nc2c(ncn2[C@H]2CO[C@@H](CO)O2)c(=O)n1Cc1ccccc1,MTT,>100 µM
CNc1ncnc2c1ncn2[C@H]1C=C[C@@H](CO)O1,-,>100 µM
Cc1cn([C@H]2CC(N=[N+]=[N-])[C@@H](COP(=O)(OCCC#N)OC[C@H]3CC[C@@H](n4cnc5c(=O)[nH]cnc54)O3)O2)c(=O)[nH]c1=O,-,47 µM
Nc1nc(NC2CC2)c2ncn([C@H]3CO[C@@H](CO)O3)c2n1,MTT,>100 µM
Oc1c(I)cc(Cl)c2cccnc12,-,2 µM
CCc1cn([C@H]2CC[C@@H](CO)O2)c(=O)[nH]c1=O,-,>100 µM
CC(C)C(Cc1ccccc1)NC(=O)C[C@@H]1O[C@@H]1[C@H](Cc1ccccc1)NC(=O)[C@@H](NC(=O)OCC1CC1)C(C)(C)S(C)(=O)=O,-,>10 µM
Cc1cn([C@H]2C=C[C@@H](COC(=O)CNC(=O)C(=O)/C=C(\O)c3cc(OCc4ccccc4)cc(OCc4ccccc4)c3)O2)c(=O)[nH]c1=O,MTT,>10 µM
Cc1cc(C)cc(Cn2ccc(=O)n(Cc3cc(C)cc(C)c3)c2=O)c1,-,>206 µM
Cc1ccc(-c2ccc3c(c2)C=C(C(=O)Nc2ccc(C[N+](C)(C)C4CCOCC4)cc2)CCC3)cc1,-,>20 µM
Cc1cn([C@H]2C=C[C@@H](COC(=O)CNC(=O)C(=O)/C=C(\O)c3cccn3Cc3ccc(F)cc3)O2)c(=O)[nH]c1=O,MTT,>10 µM
CCCCN1C(=O)C(CC2CCCCC2)NC(=O)C12CCN(Cc1cnc(-c3ccccc3)[nH]1)CC2,-,12 µM
CSC[C@H](NC(=O)COc1cccc2cnccc12)C(=O)N[C@@H](Cc1ccccc1)[C@H](O)C(=O)N1CSC(C)(C)[C@H]1C(=O)NC(C)(C)C,-,49 µM
Nc1ncnc2c1ncn2[C@@H]1C=C(F)[C@H](CO)S1,MTT,>100 µM
Cc1cn([C@H]2C[C@H](N=[N+]=[N-])[C@@H](CO)O2)c(=O)[nH]c1=O,-,>10 µg/mL
Cc1oncc1C(=O)Nc1ccc(C(F)(F)F)cc1,-,>100 µM
CCCCC1(CCCC)OCC(C)(CSc2ccc(Cl)cc2)OO1,MTT,>100 µM
Nc1nc2c(ncn2[C@H]2C=C[C@@H](CO)O2)c(=O)[nH]1,-,>100 µM
C#C[C@]1(CO)O[C@@H](n2cnc3c(N)nc(F)nc32)C[C@@H]1O,-,>10 µM
CCn1cc(C(=O)O)c(=O)c2cc(F)c(N3CCN(c4ccccc4OC)CC3)c(OC(F)F)c21,-,11 µM
Nc1nc(=O)n([C@@H]2C[Se][C@H](CO)O2)cc1F,-,>100 µM
Nc1ccn([C@H]2C=C[C@@H](CO)C2)c(=O)n1,-,>100 µM
CCCCC#CCSc1ccccc1OC(C)=O,MTT,105 µM
CO[C@H]1/C=C/O[C@@]2(C)Oc3c(C)c(O)c4c(O)c(c5c(c4c3C2=O)NC2(CCN(CC(C)C)CC2)N=5)=NC(=O)/C(C)=C\C=C\[C@H](C)[C@H](O)[C@@H](C)[C@@H](O)[C@@H](C)[C@H](OC(C)=O)[C@@H]1C,-,>120 µg/mL
Cc1cn([C@H]2C[C@H](N=[N+]=[N-])[C@@H](COP(=O)(O)OC[C@@H]3CC[C@H](n4cnc5c(=O)[nH]cnc54)O3)O2)c(=O)[nH]c1=O,-,>100 µM
CCCCN1C(=O)C(CC2CCCCC2)NC(=O)C12CCN(Cc1ccc3c(c1)OCCO3)CC2,-,51.8 µM
C=CCc1ccc(O)c(-c2cc(CC=C)ccc2O)c1,-,16.1 µM
Cc1cn([C@H]2C[C@H](N=[N+]=[N-])[C@@H](CO)O2)c(=O)nc1N,-,>200 µM
Nc1ncnc2c1ncn2CCOCP(=O)(O)O,-,>100 µM
Nc1ncnc2c1ncn2[C@H]1C=C(F)[C@@H](CO)S1,MTT,>100 µM
CC(C)C(Cc1ccccc1)NC(=O)C[C@@H]1O[C@@H]1[C@H](Cc1ccccc1)NC(=O)[C@@H](NC(=O)c1ccccn1)C(C)(C)S(C)(=O)=O,-,>10 µM
Cc1nc2cc3nc4ccccc4cc3cc2s1,-,16.8 µM
Nc1ncnc2c1ncn2[C@H]1C=C[C@@H](CO)O1,-,>100 µM
CCCCC/C=C\C/C=C\C/C=C\C/C=C\CCCC(=O)NCCc1ccc(O)c(O)c1,-,>5 µM
c1cc(CN2CCCNCCNCCCNCC2)cc(CN2CCCNCCNCCCNCC2)c1,-,>10 µM
COC(=O)[C@H](C)NP(=O)(OC[C@H]1O[C@@H](N2C(=O)NC(=O)C(C)(Br)C2OC)C[C@@H]1N=[N+]=[N-])Oc1ccc(OC)cc1,-,>100 µM
CC(C)=CCOc1cc(NC(=S)c2ccoc2C)ccc1Cl,-,619.5 µM
Cc1cn([C@H]2C[C@H](N=[N+]=[N-])[C@@H](CO)O2)c(=O)[nH]c1=O,-,>100 µg/mL
CCc1cn([C@H]2C=C[C@@H](CO)O2)c(=O)[nH]c1=O,-,>100 µM
Nc1nc(NCc2ccccc2)c2ncn([C@H]3CO[C@@H](CO)O3)c2n1,MTT,>100 µM
COc1cc(Cn2c(=O)ccn(CC#N)c2=O)cc(OC)c1,-,>415 µM
CCCCN(C)C(=O)N[C@H](C(=O)N[C@@H](Cc1ccccc1)[C@H]1O[C@H]1CC(=O)NC(Cc1ccccc1)C(C)C)C(C)(C)S(C)(=O)=O,-,>10 µM
Nc1nc2c(ncn2[C@H]2CO[C@@H](CO)O2)c(=O)[nH]1,-,>500 µM
c1cc(CN2CCCNCCNCCCNCC2)ccc1CN1CCCNCCNCCCNCC1,-,>300 µM
CC(=O)O[C@@H]1[C@H](OC(=O)CC(C)C)c2c(ccc3ccc(=O)oc23)OC1(C)C,-,4–20 µg/mL
Nc1nc2c(ncn2[C@H]2CC[C@@H](CO)O2)c(=O)[nH]1,-,>100 µM
Cc1cn([C@H]2C[C@H](N=[N+]=[N-])[C@@H](CO)O2)c(=O)[nH]c1=O,MTS,>1 µM
CCN1c2ncccc2N(C)C(=S)c2oc3cccnc3c21,-,>60 µM
O=c1ccn(Cc2c(F)cccc2F)c(=O)[nH]1,-,197 µM
Nc1ccn([C@H]2CC[C@@H](CO)O2)c(=O)n1,-,>100 µM
CCCCN1C(=O)C(CC(C)C)NC(=O)C12CCN(Cc1ccc(Oc3ccccc3)cc1)CC2,-,10.8 µM
O=C(/C=C(\O)c1ncn[nH]1)c1ccc(Cc2ccc(F)cc2)o1,-,110 µM
CC(C)OCC(=O)N[C@H](C(=O)N[C@@H](Cc1ccccc1)[C@H]1O[C@H]1CC(=O)NC(Cc1ccccc1)C(C)C)C(C)(C)S(C)(=O)=O,-,>10 µM
Oc1ccc(CCl)c2cccnc12,-,>10 µM
CSCSc1nc(Cc2ccccc2)c(C(C)C)c(=O)[nH]1,-,>100 µM
C=C(C)[C@]12C[C@@H](COc3ccccc3)[C@@]34OC5(OC1[C@@H]3[C@@H]1O[C@]1(CO)[C@@H](O)[C@]1(O)[C@@H](Oc3ccccc3)[C@@H](C)[C@H]([C@H](C)CCCCC[C@@H]5O)[C@]14C)O2,-,>2.5 µM
Oc1ccc(CNCc2ccc(CNCc3ccc(O)c4ncccc34)cc2)c2cccnc12,-,>10 µM
CCN1c2cc(C)c(C)cc2N(C)S(=O)(=O)c2cccnc21,-,>50 µM
Cc1cn([C@H]2C[C@H](N=[N+]=[N-])[C@@H](COP(=O)(OCCC#N)OC[C@@H]3CC[C@H](n4cnc5c(N)ncnc54)O3)O2)c(=O)[nH]c1=O,-,>200 µM
NC(=O)CC(NC(=O)c1ccc2ccccc2n1)C(=O)N[C@@H](Cc1ccccc1)[C@H]1O[C@H]1CNS(=O)(=O)c1ccc(N)cc1,-,>10 µM
O=C(O)[C@H]1O[C@@H](Oc2cc3oc(-c4ccccc4)cc(=O)c3c(O)c2O)[C@H](O)[C@@H](O)[C@@H]1O,-,250 µM
C#C[C@@]1(CO)C=C[C@H](n2cc(C)c(=O)[nH]c2=O)O1,-,56 µM
COc1cc(Cn2c(=O)ccn(CC#N)c2=O)cc(OC)c1OC,-,>377 µM
O=c1ccn([C@@H]2C=C(F)[C@H](CO)S2)c(=O)[nH]1,MTT,>100 µM
Cc1ccc(-c2ccc3c(c2)C=C(C(=O)Nc2ccc(C[N+](C)(C)C4CCOCC4)cc2)CCC3)cc1,-,>20 µM
Oc1ccc(CN2CCCNCCCNCCNCCC2)c2cccnc12,-,>10 µM
O=c1[nH]cnc2c1ncn2[C@H]1C=C(F)[C@@H](CO)S1,MTT,>100 µM
COC(=O)[C@H](C)NP(=O)(OC[C@H]1O[C@@H](N2C(=O)NC(=O)C(C)(Br)C2OC)C[C@@H]1N=[N+]=[N-])Oc1ccc(Br)cc1,-,27.8 µM

A second listing of 8 rows from above:

compound	method	result
Cc1ccc(-c2ccc3c(c2)C=C(C(=O)Nc2ccc(C[N+](C)(C)C4CCOCC4)cc2)CCC3)cc1	-	>20 µM
O=c1[nH]cnc2c1ncn2[C@H]1C=C(F)[C@@H](CO)S1	MTT	>100 µM
Cc1cn([C@H]2C[C@H](N=[N+]=[N-])[C@@H](CO)O2)c(=O)[nH]c1=O	-	>100 µg/mL
COC(=O)[C@H](C)NP(=O)(OC[C@H]1O[C@@H](N2C(=O)NC(=O)C(C)(Br)C2OC)C[C@@H]1N=[N+]=[N-])Oc1ccc(OC)cc1	-	>100 µM
Oc1c(I)cc(Cl)c2cccnc12	-	2 µM
CCCCC/C=C\C/C=C\C/C=C\C/C=C\CCCC(=O)NCCc1ccc(O)c(O)c1	-	>5 µM
CO[C@H]1/C=C/O[C@@]2(C)Oc3c(C)c(O)c4c(O)c(c5c(c4c3C2=O)NC2(CCN(CC(C)C)CC2)N=5)=NC(=O)/C(C)=C\C=C\[C@H](C)[C@H](O)[C@@H](C)[C@@H](O)[C@@H](C)[C@H](OC(C)=O)[C@@H]1C	-	>120 µg/mL
Nc1ncnc2c1ncn2[C@@H]1C=C(F)[C@H](CO)S1	MTT	>100 µM

a–b is a range or a potency band. Rows are shuffled and stem from different studies. Blank or dashed fields: not listed here.